Experimental data from publication PMC12216609, “Inhibitors of eIF1A-ribosome interaction unveil uORF-dependent regulation of translation initiation and antitumor and antiviral effects” (The EMBO Journal, 2025).
Where “and” joins values, the source holds several entries; their conditions need not be identical. Identical values can stand only once.

Test system: regulatory CUG of SARS-CoV-2 ORF7a 5'UTR in HEK293T cells
Experiment: SARS-CoV-2 ORF7a 5'UTR CUG (Renilla) / AUG (firefly) reporter ratio
Type: cell-based
Conditions: for AUG, normalized to DMSO, Average(%): RL - ATG reporter

COc1cc2nccc(Oc3ccc(NC(=O)Nc4cc(C)on4)c(Cl)c3)c2cc1OC
normalized to DMSO: 0.442 and 0.377 and 0.424 | AUG, normalized to DMSO, Average(%) (0.5 uM, average of 4 repeats): 95.29% | AUG, normalized to DMSO, Average(%) (10 uM, average of repeats): 90.56%
